Anti-infective test results gathered from many reports (values: NIAID ChemDB through PubChem).

All rows: growth or infection tests; species: Aspergillus fumigatus; endpoint: MIC80

Conditions beyond the fields shown may differ between rows. MIC50, MIC90 and the like: level of inhibition, or share of isolates inhibited.

O=C(/C=C/c1ccccc1F)OC1CCN(CC(O)(Cn2cncn2)c2ccc(F)cc2F)CC1 ; strain or isolate: 0504656 ; read by: broth dilution ; result: 2.057 µM
C[C@@H](N1CCN(Cc2cn(Cc3ccc(F)cc3)c3c(F)cccc23)CC1)[C@](O)(Cn1cncn1)c1ccc(F)cc1F ; strain or isolate: ATCC 16424 ; read by: resazurin ; result: 16 µg/mL
NC(=O)N/N=C/c1ccsc1 ; strain or isolate: CBS 113.26 ; read by: turbidity / absorbance ; result: >250 µg/mL
CN1CCN(c2n[nH]c(N3C(=O)CS[C@@H]3c3ccc4c(c3)OCO4)n2)CC1 ; strain or isolate: 119 ; read by: broth dilution ; result: 3.12 µg/mL
O=C(/C=C/c1ccccc1[N+](=O)[O-])OC1CCN(CC(O)(Cn2cncn2)c2ccc(F)cc2F)CC1 ; strain or isolate: 0504656 ; read by: broth dilution ; result: 1.949 µM
CC1(C)C=Cc2ccc3c(=O)c4ccccc4oc3c2O1 ; result: >250 µg/mL
C[C@@H](N1CCN(Cc2cn(Cc3ccc(F)cc3F)c3cc(Cl)ccc23)CC1)[C@](O)(Cn1cncn1)c1ccc(F)cc1F ; strain or isolate: ATCC 16424 ; read by: resazurin ; result: 8 µg/mL
COc1c2c(c3oc4c(O)cccc4c(=O)c3c1O)CC(C(C)(C)O)O2 ; result: 125 µg/mL
O=C(OC1CCN(CC(O)(Cn2cncn2)c2ccc(F)cc2F)CC1)C(F)(F)Cl ; strain or isolate: 0504656 ; read by: broth dilution ; result: 142 µM
C[C@@H]1[C@H](O)[C@@H](C)/C=C/C=C/C=C/C=C/C=C/C=C/C=C/[C@H](O[C@@H]2O[C@H](C)[C@@H](O)[C@H](N)[C@@H]2O)C[C@@H]2O[C@](O)(C[C@@H](O)C[C@@H](O)[C@H](O)CC[C@@H](O)C[C@@H](O)CC(=O)O[C@H]1C)C[C@H](O)[C@H]2C(=O)O ; strain or isolate: CB 11326 ; read by: broth dilution ; result: 8 µg/mL
O=C(/C=C/c1cccc(F)c1)OC1CCN(CC(O)(Cn2cncn2)c2ccc(F)cc2F)CC1 ; strain or isolate: 0504656 ; read by: broth dilution ; result: 2.057 µM
CCCCCC ; result: 8 µg/mL
C[C@@H](N1CCN(Cc2cn(Cc3ccc(F)cc3F)c3c(F)cccc23)CC1)[C@](O)(Cn1cncn1)c1ccc(F)cc1F ; strain or isolate: ATCC 16424 ; read by: resazurin ; result: 8 µg/mL
C[C@@H]1[C@H](O)[C@@H](C)/C=C/C=C/C=C/C=C/C=C/C=C/C=C/[C@H](O[C@@H]2O[C@H](C)[C@@H](O)[C@H](N)[C@@H]2O)C[C@@H]2O[C@](O)(C[C@@H](O)C[C@@H](O)[C@H](O)CC[C@@H](O)C[C@@H](O)CC(=O)O[C@H]1C)C[C@H](O)[C@H]2C(=O)O ; strain or isolate: CBS 113.26 ; read by: turbidity / absorbance ; result: 6 µg/mL
C[C@@H](N1CCN(Cc2c[nH]c3ccccc23)CC1)[C@](O)(Cn1cncn1)c1ccc(F)cc1F ; strain or isolate: ATCC 16424 ; read by: resazurin ; result: 64 µg/mL
COc1cccc2oc3ccc(O)c(OC)c3c(=O)c12 ; result: 16 µg/mL
O=C(/C=C/c1ccc(Br)cc1)OC1CCN(CC(O)(Cn2cncn2)c2ccc(F)cc2F)CC1 ; strain or isolate: 0504656 ; read by: broth dilution ; result: 1.831 µM
COc1ccc2oc3ccccc3c(=O)c2c1O ; result: >250 µg/mL
C[C@@H](N1CCN(Cc2cn(Cc3ccc(F)cc3F)c3cc(N=[N+]=[N-])ccc23)CC1)[C@](O)(Cn1cncn1)c1ccc(F)cc1F ; strain or isolate: ATCC 16424 ; read by: resazurin ; result: 4 µg/mL

The first 3 rows once more:

smiles | strain or isolate | read by | result
O=C(/C=C/c1ccccc1F)OC1CCN(CC(O)(Cn2cncn2)c2ccc(F)cc2F)CC1 | 0504656 | broth dilution | 2.057 µM
C[C@@H](N1CCN(Cc2cn(Cc3ccc(F)cc3)c3c(F)cccc23)CC1)[C@](O)(Cn1cncn1)c1ccc(F)cc1F | ATCC 16424 | resazurin | 16 µg/mL
NC(=O)N/N=C/c1ccsc1 | CBS 113.26 | turbidity / absorbance | >250 µg/mL